Measured values: ChEMBL document CHEMBL5149972, “Novel Antimalarial Tetrazoles and Amides Active against the Hemoglobin Degradation Pathway in Plasmodium falciparum” (J Med Chem, 2021)

Key:
Format in all cases: functional
[1] = Fold resistance, ratio of EC50 for antiplasmodial activity against lab-derived ELQ300 resistant Plasmodium falciparum Dd2-PfCytB mutant infected in human RBC to EC50 for antiplasmodial activity against chloroquine and pyrimethamine resistant Plasmodium falciparum Dd2 infected in human RBC
[2] = Fold resistance, ratio of EC50 for antiplasmodial activity against lab-derived MMV390048 resistant Plasmodium falciparum Dd2-Pfpi4K mutant infected in human RBC to EC50 for antiplasmodial activity against chloroquine and pyrimethamine resistant Plasmodium falciparum Dd2 infected in human RBC
[3] = Fold resistance, ratio of EC50 for antiplasmodial activity against lab-derived DSM265 resistant Plasmodium falciparum Dd2-PfDHODH mutant infected in human RBC to EC50 for antiplasmodial activity against chloroquine and pyrimethamine resistant Plasmodium falciparum Dd2 infected in human RBC
[4] = Fold resistance, ratio of EC50 for antiplasmodial activity against lab-derived KAF156 resistant Plasmodium falciparum Dd2-Pfcarl mutant infected in human RBC to EC50 for antiplasmodial activity against chloroquine and pyrimethamine resistant Plasmodium falciparum Dd2 infected in human RBC
[5] = Fold resistance, ratio of EC50 for antiplasmodial activity against chloroquine and piperaquine resistant Plasmodium falciparum Dd2-M343L mutant replaced with endogenous pfcrt locus with the recombinant Dd2 sequence and the PPQ resistance-conferring M343L at endogenous pfcrt Dd2 locus infected in …
[6] = Fold resistance, ratio of EC50 for antiplasmodial activity against chloroquine resistant Plasmodium falciparum Dd2-Dd2 mutant replaced with recombinant Dd2 sequence at endogenous pfcrt Dd2 locus infected in human RBC to EC50 for antiplasmodial activity against chloroquine resistant Plasmodium …
[7] = Fold resistance, ratio of EC50 for antiplasmodial activity against piperaquine and pyrimethamine resistant Plasmodium falciparum RF12 infected in human RBC to EC50 for antiplasmodial activity against asexual blood stage Plasmodium falciparum 3D7 infected in human RBC

Cc1ccccc1-n1nnnc1C(c1cncnc1)N(Cc1cccc(C(F)(F)F)c1)C1CC1 (racemic)
Ratio [1]: 1.1
Ratio [2]: 1.1
Ratio [3]: 1.1
Ratio [4]: 1.1
Ratio [5]: 0.19
Ratio [6]: 0.5
Ratio [7]: 2.8
